Test results from patent US20240270826A1 (NATIONAL RESEARCH COUNCIL OF CANADA, published 2024).

B1: NRCoV2-12 VHH-Fc (Fc fusion)
chain: EVQLQQSGGGLVQAGGSLRLSCAASGRTFRNYVMGWFRQAPQAPGKDHEFVAAISWGGTEIYYADSVKGRFTISRDNAKNTVYLQMNSLKPEDTAVYYCAADRGLSYYYTRTTEYNYWGQGTQVTVSS
notes: bivalent VHH-Fc
B2: NRCoV2-SR02 VHH-Fc (Fc fusion)
chain: EVQLVDSGGGLVQAGGSLRLSCTASEFTLNYYSIGWFRQSPGKEREGVSCIRYSGGGIDYADSVKGRFTISRDNAKNTVYLTMNSLKPEDTAVYYCAADRLYSRACPTAGGRNYWGQGTQVTVSS
notes: bivalent VHH-Fc
B3: NRCoV2-20 VHH-Fc (Fc fusion)
chain: EVQLQQSGGGLVQPGGSLRLSCAASGRTFSNYVVGWFRQAPQAPGKDHEFVAVISGSDTETYYADSVKGRFTISRDNAKNTVYLQMNSLKPEDTAVYYCAADRGMSYYYTRATEYYYWGQGTQVTVSS
notes: bivalent VHH-Fc
B4: NRCoV2-15 VHH-Fc (Fc fusion)
chain: EVQLVSSGGGLVEAGGSLRLSCIASGSTSGRNTMGWFRQAPGKQREWVAIVSTSGATNYAGSVKGRFTLSRDNAKNAVYLQMNNLKPEDTAVYYCYAAYGGGGDYWGQGTQVTVSS
notes: bivalent VHH-Fc
B5: NRCoV2-07 VHH-Fc (Fc fusion)
chain: QVQLVQSGGGLVQPGGSLRLSCAASGVTLDYYAIGWFRQAPGKEREAVSCISSNGRRNHYVASVRGRFTISRDNAKSTVYLQMNSLKPEDTAVYYCAAVQDVHGDNYYCTSPNEYNVWGQGTQVTVSS
notes: bivalent VHH-Fc
B6: NRCoV2-14 VHH-Fc (Fc fusion)
chain: EVQLVSSGGGLVQAGGSLRLSCEASGTTFSHYAVGWYRQAPGKQREWVASISVFGSTTYGGSVAGRFTISRDNDKNTVDLQMNSLKPEDTAVYYCHAVNADIGGDYWGQGTQVTVSS
notes: bivalent VHH-Fc
B7: NRCoV2-SR01 VHH-Fc (Fc fusion)
chain: EVQLVQSGGGSVQAGGSLRLSCVASGFTFDNYAIGWFRQAPGKEREGVSCISGNGGVTIYADSVKGRFTISRDNAKNLVYLQMNSLKPEDTAVYYCAATGIRSTWSVYGCSRLAGPYDYWGQGTQVTVSS
notes: bivalent VHH-Fc
B8: NRCoV2-MRed04 VHH-Fc (Fc fusion)
chain: EVQLVESGGGLVQPGRSLRLSCAASGNSFSISTMGWFRQAPGKERELVASIWSDTTTSYADSVKGRFTISTDNTRTKVYLQMSSLNPEDTAVYYCAADRGFVVRGQYDYWGQGTQVTVSS
notes: bivalent VHH-Fc
B9: NRCoV2-1d VHH-Fc (Fc fusion)
chain: EVQLVESGGGSVQPGGSLRLSCAASGSTLDYYAIGWFRQAPGKEREWVSSVSSSDGNTLYADSVKGRFTISRDNAKNTVYLQMNSLKAEDTAVYVCAADYSMRPFAVGRWHRDYEYWGQGTQVTVSS
notes: bivalent VHH-Fc
B10: NRCoV2-10 VHH-Fc (Fc fusion)
chain: QLQLQESGGGLVQPGGSLTLSCAASGNTFSRSNMHWYRQAPGAQREWVAAISSRGISTYAYSAKGRFTISRDNAKNTVSLQMNSLKPEDTAVYYCYAADDLGDYWGQGTQVTVSS
notes: bivalent VHH-Fc
B11: NRCoV2-18 VHH-Fc (Fc fusion)
chain: EVQLVESGGGLVQAGGSLRLSCVASGITISGYNMAWWRQTRGKQTERVAFINSGGSTTYSDSVKGRFTISRDNGKNTAYLQMNSLNAEDTADYFCSLHTSHDYWGQGTQVTVSS
notes: bivalent VHH-Fc
B12: NRCoV2-17 VHH-Fc (Fc fusion)
chain: EVQLQQSGGGLVQTGGSLRLSCAAAGSPFSQLAMSWYRQISGKERAWVASISPTGNRSYSKIAKGRFTISRDNAKNTVTLQMTSLKPEDTAAYICQAANVNGGDYWGQGTQVTVSS
notes: bivalent VHH-Fc
B13: NRCoV2-MRed05 VHH-Fc (Fc fusion)
chain: EVQLVESGGGLVQPGGSLRLSCAASGFTLDYYAIGWFRQAPGKEREGVSCISSSDGSTLYADSVKGRFTISRDNAKNTVYLQMNSLKPEDTAVYYCATGPQAYYSGSYYFQCPQAGMDYWGKGTQVTVSS
notes: bivalent VHH-Fc
B14: NRCoV2-11 VHH-Fc (Fc fusion)
chain: EVQLVSSGGGLVQPGGSLRLSCAASGSSLDSYSVSWFRQAPGKEREWISFISRYYSSTYYTDSVKGRFTTSRDGDQKTVHLQMNSLKPEDTAVYYCAARSRDFSSPFSATDTYTSWGQGTQVTVSS
notes: bivalent VHH-Fc
B15: NRCoV2-SR02 VHH (VHH)
VHH: B2 chain
B16: NRCoV2-07 VHH (VHH)
VHH: B5 chain
B17: NRCoV2-1d VHH (VHH)
VHH: B9 chain
B18: NRCoV2-02 VHH (VHH)
VHH: EVQLVESGGGLVQAGGSLRLSCAASGFTFSNYAMNWVRQAPGKGLEWVSGISGRGDDTRYADSVKGRFTISRDNAKNTLFLQMRSLRPEDTGVYRCTKGPDLYYFGSGYSDRGQGTQVTVSS
B19: NRCoV2-05 VHH (VHH)
VHH: EVKLVQSGGGLVQPGGSLRLSCAASGFIFSNYAMNWVRQAPGKGLEWVSGINSGGGDTRYADSVKGRFTVSRDNAKNTLYLQMNSLKPEDTGVYYCSKGPVSSYYGSGYDYRGQGTQVTVSS
B20: NRCoV2-02 VHH-Fc (Fc fusion)
chain: B18 VHH
notes: bivalent
B21: NRCoV2-SR02 VHH-Fc (Fc fusion)
chain: B2 chain
notes: bivalent VHH-Fc
B22: NRCoV2-15 VHH-Fc (Fc fusion)
chain: B4 chain
notes: bivalent VHH-Fc
B23: NRCoV2-SR13 VHH-Fc (Fc fusion)
chain: EVQLVESGGGLVTTGGSLRLSCATSGSRFGSKHMAWYRQAPGKQRDLVAAISSGGSTHYGSSVKGRFTISRDNAKSTVYLQMNSLNPEDTAVFYCNMGGWDYRSNTYIPGSRSDYWGQGTQVTVSS
notes: bivalent VHH-Fc
B24: NRCoV2-04 VHH-Fc (Fc fusion)
chain: AVQLVDSGGGLVQPGGSLRLSCAASGSPFSNVVMAWYRQAPGKQRERVAFISGGGIADYIMSVKGRFTISRDNAKNTVYLQMNSLKPEDTAVYYCWSSYESTWGQGTQVTVSS
notes: bivalent VHH-Fc
B25: NRCoV2-14 VHH-Fc (Fc fusion)
chain: B6 chain
notes: bivalent VHH-Fc
B26: NRCoV2-SR01 VHH-Fc (Fc fusion)
chain: B7 chain
notes: bivalent VHH-Fc
B27: NRCoV2-10 VHH-Fc (Fc fusion)
chain: B10 chain
notes: bivalent VHH-Fc
B28: NRCoV2-05 VHH-Fc (Fc fusion)
chain: B19 VHH
notes: bivalent VHH-Fc
B29: NRCoV2-17 VHH-Fc (Fc fusion)
chain: B12 chain
notes: bivalent VHH-Fc
B30: NRCoV2-MRed05 VHH-Fc (Fc fusion)
chain: B13 chain
notes: bivalent VHH-Fc
B31: NRCoV2-11 VHH-Fc (Fc fusion)
chain: B14 chain
notes: bivalent VHH-Fc

target: SARS-CoV-2 spike protein S on live virus, Beta variant (SARS-CoV-2 (Beta variant), UniProt P0DTC2 14-1273); assay: cell-based or functional assay

Binder | LVNA IC50
B1 | 2.62 nM
B2 | ~300 nM
B3 | 2.88 nM
B4 | 0.43 nM
B5 | 3.18 nM
B6 | 32.8 nM
B7 | 70.3 nM
B8 | 5.73 nM
B9 | 2.14 nM
B10 | 2.25 nM
B11 | 9.48 nM
B12 | 34.7 nM
B13 | 0.11 nM
B14 | 18.5 nM

target: T1, SARS-CoV-2 spike trimer S (Wuhan, SmT1) (SARS-CoV-2 Wuhan); assay: competitive ELISA, VHH 0.5 uM final, ACE2-Fc competitor
T1 construct: extracellular domain

Binder | % inhibition of ACE2-Fc binding to S
B15 | ~100%
B16 | ~100%
B17 | ~100%
B18 | ~100%
B19 | ~100%

target: T2, SARS-CoV-2 S1-RBD (adsorbed in ELISA) (SARS-CoV-2 Wuhan); assay: ELISA, coated antigen, apparent EC50
T2 construct: domain: S1-RBD

Binder | EC50
B20 | 0.21 nM

target: Human SARS-CoV-2 Alpha S (SARS-CoV-2 (Alpha variant)); assay: flow cytometry SVNA: VHH-Fc inhibits S binding to ACE2 on Vero E6 cells

Binder | IC50
B21 | 7.3 nM
B22 | 9.8 nM
B23 | 22.4 nM
B24 | 21.9 nM
B25 | 18 nM
B26 | 3.1 nM
B27 | 11.3 nM
B28 | 4.8 nM
B29 | 10.6 nM
B30 | 4.2 nM
B31 | 6.6 nM
